Data as given in US8557762 (CHILDREN S HOSPITAL OF PHILADELPHIA, dated 2013).
Several values for one entry are separate records, joined by “and”; a condition that tells them apart may be missing. Equal entries are not always repeated.

Biological target: purified enzymatic subunit of pseutarin C (pt-FXa) (Pseudonaja textilis), Q56VR3

B1: pt-rFV-QQ (pt-FV variant with Arg742 and Arg788 replaced by Gln), Q7SZN0 31-1460 (protein)
chain: AQLREYHIAAQLEDWDYNPQPEELSRLSESDLTFKKIVYREYELDFKQEKPRDALSGLLGPTLRGEVGDSLIIYFKNFATQPVSIHPQSAVYNKWSEGSSYSDGTSDVERLDDAVPPGQSFKYVWNITAEIGPKKADPPCLTYAYYSHVNMVRDFNSGLIGALLICKEGSLNANGSQKFFNREYVLMFSVFDESKNWYRKPSLQYTINGFANGTLPDVQACAYDHISWHLIGMSSSPEIFSVHFNGQTLEQNHYKVSTINLVGGASVTADMSVSRTGKWLISSLVAKHLQAGMYGYLNIKDCGNPDTLTRKLSFRELMKIKNWEYFIAAEEITWDYAPEIPSSVDRRYKAQYLDNFSNFIGKKYKKAVFRQYEDGNFTKPTYAIWPKERGILGPVIKAKVRDTVTIVFKNLASRPYSIYVHGVSVSKDAEGAIYPSDPKENITHGKAVEPGQVYTYKWTVLDTDEPTVKDSECITKLYHSAVDMTRDIASGLIGPLLVCKHKALSVKGVQNKADVEQHAVFAVFDENKSWYLEDNIKKYCSNPSAVKKDDPKFYKSNVMYTLNGYASDRTEVLRFHQSEVVQWHLTSVGTVDEIVPVHLSGHTFLSKGKHQDILNLFPMSGESATVTMDNLGTWLLSSWGSCEMSNGMRLRFLDANYDDEDEGNEEEEEDDGDIFADIFIPSEVVKKKEEVPVNFVPDPESDALAKELGLIDDEGNPIIQPRREQTEDDEEQLMKASMLGLQSFKGSVAEEELKHTALALEEDAHASDPRIDSNSARNPDDIAGRYLQTINRGNKRRYYIAAEEVLWDYSPIGKSQVRSRAAKTTFKKAIFRSYLDDTFQTPSTGGEYEKHLGILGPIIRAEVDDVIEIQFKNLASRPYSLHAHGLLYEKSSEGRSYDDKSPELFKKDDAIMPNGTYTYVWQVPPRSGPTDNTEKCKSWAYYSGVNPEKDIHSGLIGPILICQKGMIDKYNRTIDIREFVLFFMVFDEEKSWYFPKSDKSTCEEKLIGVQSLHTFPAINGIPYQLQGLTMYKDENVHWHLLNMGGPKDIHVVNFHGQTFTEEGREDNQLGVLPLLPGTFASIKMKPSKIGTWLLETEVGENQERGMQALFTVIDKDCKLPMGLASGIIQDSQISASGHVGYWEPKLARLNNTGKYNAWSIIKKEHEHPWIQIDLQRQVVITGIQTQGTVQLLQHSYTVEYFVTYSEDGQNWITFKGRHSETQMHFEGNSDGTTVKENHIDPPIIARYIRLHPTKFYNRPTFRIELLGCEVEGCSVPLGMESGAIKNSEITASSYKKTWWSSWEPFLARLNLEGGTNAWQPEVNNKDQWLQIDLQHLTKITSIITQGATSMTTSMYVKTFSIHYTDDNSTWKPYLDVRTSMEKVFTGNINSDGHVKHFFKPPILSRFIRIIPKTWNQYIALRIELFGCEVF
  Kd: 2.88 nM and 9.39 nM
